From patent US20250066290A1, “DHODH INHIBITORS CONTAINING A CARBOXYLIC ACID BIOISOSTERE” (IMMUNIC AG, priority 2021, published 2025)

System: SARS-CoV-2
Test: SARS-CoV-2 viral replication (YFP) assay
Format: cell-based
Details: Severe acute respiratory syndrome coronavirus 2, read-out: EC50 range

SMILES: [2H]C([2H])([2H])Oc1cccc(-c2cc(F)c(NC(=O)C3=C(C(=O)NOC)CSC3)c(F)c2)c1 [Example 6, N^3-(3,5-Difluoro-3′-(methoxy-d3)-[1,1′-biphenyl]-4-yl)-N^4-methoxy-2,5-dihydrothiophene-3,4-dicarboxamide]
- EC50: < 1000 nM
